Results of unrelated studies side by side (data: NIAID ChemDB).

All rows: tests in culture

ECn: concentration that inhibits the pathogen or its effect by n%.

structure	strain	endpoint	method	setting	species	dose	mutations	result
CO[C@H]1/C=C/O[C@@]2(C)Oc3c(C)c(O)c4c(O)c(cc(O)c4c3C2=O)NC(=O)/C(C)=C\C=C\[C@H](C)[C@H](O)[C@@H](C)[C@@H](O)[C@@H](C)[C@H](OC(C)=O)[C@@H]1C	EO-P-1	MIC			Mycobacterium chelonae			25 µg/mL
CCNC(=O)c1c(NC(=O)c2c(F)c(F)c(F)c(F)c2F)sc2c1CCN(CC)C2	bolletii 103	MIC	resazurin / turbidity		Mycobacterium abscessus			>200 µM
OB1OC(N2CCN(C3OB(O)c4ccccc43)CC2)c2ccccc21		MBC	turbidity		Mycobacterium luteum			0.9 µg/mL
CCCCCCCCCCCCCCCCCCCCCCC(=O)NC(C)(CCC(=O)O)CCC(=O)O	ATCC 927	MIC			Mycobacterium marinum			5 µg/mL
O=C(Oc1ccc(Cl)cc1C(=O)Nc1ccc(Br)cc1)c1cnccn1	6509/96	MIC		14 d	Mycobacterium kansasii			2 µM
CCCCCCCN(CCCCCCC)C(=O)NC(CCC(=O)O)(CCC(=O)O)CCC(=O)O	AAy-P-1	MIC			Mycobacterium abscessus			36 µg/mL
N[C@@H]1CONC1=O	14 strains	inhibition	agar		Mycobacterium avium complex	30 µg/mL		71%
CO[C@H]1/C=C/O[C@@]2(C)Oc3c(C)c(O)c4c(O)c(c5c(c4c3C2=O)NC2(CCN(CC(C)C)CC2)N=5)=NC(=O)/C(C)=C\C=C\[C@H](C)[C@H](O)[C@@H](C)[C@@H](O)[C@@H](C)[C@H](OC(C)=O)[C@@H]1C	N-316 (HIV-)	MIC			Mycobacterium avium complex			0.0625 µg/mL
CSc1nc(N)c2c(n1)NC(c1ccc(Cl)cc1)CC(c1ccc3c(c1)OCO3)=N2	MNT1193	MIC	MTT / broth dilution / absorbance	clinical isolate	Mycobacterium scrofulaceum			>32 µg/mL
CCCCCCCCCCCC(CCCCCCCCCCC)OC(=O)NC(CCC(=O)O)(CCC(=O)O)CCC(=O)O	ATCC 927	MIC			Mycobacterium marinum			216 µg/mL
CCOC(=O)c1c(NC(=O)c2c(F)c(F)c(F)c(F)c2F)sc2c1CCNC2=O	bolletii 103	EC50	resazurin / turbidity		Mycobacterium abscessus			>200 µM
CCCCCC1=NN(C(=O)CCOC(=O)CCC(=O)O)OC(CCCCC)C1	Clinical Isolate 690	zone	agar diffusion		Mycobacterium abscessus	200 µg/disc	IMP CIP PEN resistant	32 mm
OB1OCc2cc(F)ccc21		MIC	turbidity		Mycobacterium luteum			1.9 µg/mL
CCCCCCCN1CCc2c(sc(NC(=O)c3c(F)c(F)c(F)c(F)c3F)c2C(=O)OCC)C1		EC90	turbidity		Mycobacterium abscessus			>100 µM
O=C(Oc1cc(Cl)ccc1C(=O)Nc1ccc(F)cc1)c1cnccn1	6509/96	MIC		7 d	Mycobacterium kansasii			2 µM
COc1ccc(C2=Nc3c(N)nc(N)nc3NC(c3ccc4c(c3)OCO4)C2)cc1	MNT1100	MIC	MTT / broth dilution / absorbance	clinical isolate	Mycobacterium szulgai			32 µg/mL
Fc1cc(F)c(B2Oc3ccccc3O2)c(F)c1		MIC	turbidity		Mycobacterium luteum			62.5 µg/mL
NNC(=O)c1ccncc1	MNT1193	MIC	MTT / broth dilution / absorbance	clinical isolate	Mycobacterium scrofulaceum			>0.5 µg/mL
CO[C@H]1/C=C/O[C@@]2(C)Oc3c(C)c(O)c4c(=O)c(c5oc6cc(N7CCN(CC(C)C)CC7)cc(=O)c6nc5c4c3=C2O)NC(=O)/C(C)=C\C=C\[C@H](C)[C@H](O)[C@@H](C)[C@@H](O)[C@@H](C)[C@H](OC(C)=O)[C@@H]1C	N-961 (HIV+)	MIC			Mycobacterium avium complex			0.0313 µg/mL
O=C(Oc1cc(Cl)ccc1C(=O)Nc1ccc(Br)cc1)c1cnccn1	235/80	MIC		14 d	Mycobacterium kansasii			4 µM
Nc1nc(N)c2c(n1)NC(c1ccc3c(c1)OCO3)CC(c1ccc(F)cc1)=N2	MNT1100	MIC	MTT / broth dilution / absorbance	clinical isolate	Mycobacterium szulgai			>32 µg/mL
CCc1cc(C(N)=S)ccn1	97 strains	inhibition	agar		Mycobacterium avium complex	10 µg/mL		37%
CC[C@H]1OC(=O)[C@H](C)[C@@H](O[C@H]2C[C@@](C)(OC)[C@@H](O)[C@H](C)O2)[C@H](C)[C@@H](O[C@@H]2O[C@H](C)C[C@H](N(C)C)[C@H]2O)[C@](C)(OC)C[C@@H](C)C(=O)[C@H](C)[C@@H](O)[C@]1(C)O	N-325 (HIV-)	MIC			Mycobacterium avium complex			2 µg/mL
CC(C)CCOc1ccc(NC(=S)Nc2ccc(OCCC(C)C)cc2)cc1	A+	MIC			Mycobacterium aurum			2 µg/mL
NNC(=O)c1ccncc1	N-499 (HIV-)	MIC			Mycobacterium avium intracellulare			2 µg/mL
COC(=O)c1c(C)cc(OC(=O)c2c(C)cc(O)c(C=O)c2O)c(C)c1O		MIC			Mycobacterium aurum			250 µg/mL
OB(O)c1ccccc1		MBC	turbidity		Mycobacterium luteum			500 µg/mL
CCCCCCCCCCCCc1ccc(NC(=O)C2=CCN(C)[C@@H]([C@H](O[C@@H]3O[C@H](CN)[C@@H](O)[C@H]3O)[C@H]3O[C@@H](n4ccc(=O)[nH]c4=O)[C@H](O)[C@@H]3O)C(=O)N2C)cc1	ATCC 15483	MIC			Mycobacterium vaccae			6.25 µg/mL
O=C(Oc1ccc(Br)cc1C(=O)Nc1ccc(C(F)(F)F)cc1)c1cnccn1	6509/96	MIC		21 d	Mycobacterium kansasii			2 µM
CCCCCCCC(CCCCCCC)OC(=O)NC(CCC(=O)O)(CCC(=O)O)CCC(=O)O	EO-P-1	MIC			Mycobacterium chelonae			105 µg/mL
O=C(/C=C/c1ccc(O)cc1)OC[C@@H]1O[C@H](OC(=O)/C=C/c2ccc(O)cc2)[C@@H](O)[C@@H](O)[C@H]1O		MIC	broth dilution / resazurin		Mycobacterium aurum			125 µg/mL
C[C@@H]1CN(c2c(F)c(N)c3c(=O)c(C(=O)O)cn(C4CC4)c3c2F)C[C@H](C)N1	ATCC 19970	MIC	broth dilution / visual reading		Mycobacterium xenopi			0.1 µg/mL
CC(=O)c1ccc(B(O)O)cc1		MBC	turbidity		Mycobacterium luteum			31.2 µg/mL
CCCCCCCCCCCCCCC(=O)NC(C)(CCC(=O)O)CCC(=O)O	EO-P-1	MIC			Mycobacterium chelonae			9 µg/mL
CC(=O)c1c(O)c(C)c(O)c2c1OC1=CC(=O)C(C(C)=O)C(=O)[C@@]12C		MIC			Mycobacterium aurum			32 µg/mL
CO[C@H]1/C=C/O[C@@]2(C)Oc3c(C)c(O)c4c(O)c(c(/C=N/N5CCN(C6CCCC6)CC5)c(O)c4c3C2=O)NC(=O)/C(C)=C\C=C\[C@H](C)[C@H](O)[C@@H](C)[C@@H](O)[C@@H](C)[C@H](OC(C)=O)[C@@H]1C	15-Feb	MIC			Mycobacterium avium intracellulare			0.5 µg/mL
CCN1CCc2c(sc(NC(=O)c3c(F)c(F)c(F)c(F)c3F)c2C(N)=O)C1	bolletii 103	EC50	resazurin / turbidity		Mycobacterium abscessus			>200 µM

For reference, 3 entries again:

| structure | strain | endpoint | method | setting | species | dose | mutations | result |
|---|---|---|---|---|---|---|---|---|
| CO[C@H]1/C=C/O[C@@]2(C)Oc3c(C)c(O)c4c(=O)c(c5oc6cc(N7CCN(CC(C)C)CC7)cc(=O)c6nc5c4c3=C2O)NC(=O)/C(C)=C\C=C\[C@H](C)[C@H](O)[C@@H](C)[C@@H](O)[C@@H](C)[C@H](OC(C)=O)[C@@H]1C | N-961 (HIV+) | MIC |  |  | Mycobacterium avium complex |  |  | 0.0313 µg/mL |
| CCNC(=O)c1c(NC(=O)c2c(F)c(F)c(F)c(F)c2F)sc2c1CCN(CC)C2 | bolletii 103 | MIC | resazurin / turbidity |  | Mycobacterium abscessus |  |  | >200 µM |
| CCCCCCCCCCCCc1ccc(NC(=O)C2=CCN(C)[C@@H]([C@H](O[C@@H]3O[C@H](CN)[C@@H](O)[C@H]3O)[C@H]3O[C@@H](n4ccc(=O)[nH]c4=O)[C@H](O)[C@@H]3O)C(=O)N2C)cc1 | ATCC 15483 | MIC |  |  | Mycobacterium vaccae |  |  | 6.25 µg/mL |

An empty or dashed field is not shown. Inhibition is in % at the dose shown (toxicity tests: loss of growth or viability). Zone: diameter of growth inhibition. Lines come from different laboratories, so protocols vary.